Test results reported in publication PMC8872791, “MadR mediates acyl CoA-dependent regulation of mycolic acid desaturation in mycobacteria” (Proceedings of the National Academy of Sciences of the …, 2022).
For at least one entry, the source does not settle the construct or the ends of the probe. At least one verdict rests on a figure or table, not on a statement of the authors. Protein sequences can lack the tags named with them.

Biological target: T1, MadR (Mycobacterium tuberculosis H37Rv) (UniProt P9WMD9)
T1 sequence (looked up, limits assumed): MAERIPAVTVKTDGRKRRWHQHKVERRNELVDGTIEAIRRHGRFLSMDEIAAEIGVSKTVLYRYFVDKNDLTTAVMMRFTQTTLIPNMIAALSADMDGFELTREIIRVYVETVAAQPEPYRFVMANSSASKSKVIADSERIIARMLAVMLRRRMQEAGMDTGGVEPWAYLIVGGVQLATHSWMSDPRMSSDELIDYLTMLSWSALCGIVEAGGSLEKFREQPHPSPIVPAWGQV
Experiment: EMSA
Conditions: recombinant protein

Measured: binding result

TTCACGAAATCTGTGTATGCGAGTTACAGTTACCGCATGGCACAGAAACC (double strand) [desA2 promoter -36/+14]
binds: 5 uM C14:0-CoA | 5 uM C16:0 fatty acid | 5 uM C16:1-CoA | 5 uM C16:1 fatty acid | 5 uM C18:0 fatty acid | 5 uM C18:1-CoA | 5 uM C18:1 fatty acid | 5 uM C18:2-CoA | 5 uM C18:2 fatty acid | 5 uM C18:3-CoA | 5 uM C18:3 fatty acid | 5 uM C20:0 fatty acid | 5 uM C22:0 fatty acid | 5 uM C24:0 fatty acid

CAGTTATCTGTGTCTAATGGTTGCAGTCAATATATCTGTGTCTCTCGGTA (double strand) [desA1 promoter -19/+31]
binds: 5 uM C14:0-CoA | 5 uM C16:0 fatty acid | 5 uM C16:1-CoA | 5 uM C16:1 fatty acid | 5 uM C18:0 fatty acid | 5 uM C18:1-CoA | 5 uM C18:1 fatty acid | 5 uM C18:2-CoA | 5 uM C18:2 fatty acid | 5 uM C18:3-CoA | 5 uM C18:3 fatty acid | 5 uM C20:0 fatty acid | 5 uM C22:0 fatty acid | 5 uM C24:0 fatty acid
